Measurements: paper PMC5890194
Construct, isoform or probe ends are uncertain for at least one entry.

Key:
[1] = tested on: His-CpxR-P (CpxR phosphorylated with acetyl phosphate) (Actinobacillus pleuropneumoniae S4074); assay: DNase I footprinting; settings: 1.0 ug protein, 400 ng probe, recombinant protein, residues 1-242, protein details: His (pET-28a), label: FAM, probe letters rebuilt from the primers and the genome, part of a longer molecule
[2] = target: His-RpoE (UniProt A0ABM6X141); assay: EMSA; settings: 1.0-3.0 ug protein, 40 ng probe, abolished by 4 ug unlabeled competitor; recombinant protein; residues 1-192; protein details: His; label: FAM; probe letters rebuilt from the primers and the genome; part of a longer molecule

Row | Sequence | binding result [1] | binding result [2]
1 | TAAAAAGATAAGATAAGCGGTCAGATTTGATGGAAATTTTGTAAAAATCCAGTAAAATCTGACCGCTTTCAGTCATTAAATAAGAAAATATTGATACGATTATATTTAACCGGTTTTTTTATATAACATTGATTGAATTTTTACACATAAGTAGTTTAGTAAAATTATAAATATTTGTAGCATCCTTAGTCTTGTTATTGAATTTTATTAAAGTATTTGTAAATAATTGAGTAATTTATTCTTTATATGAACTTTTCATTTTTGTTACACACT (double strand) [rpoE promoter 273-bp footprinting probe] | binds | –
2 | TAATTAAGACGTCCGACTTGCTTTATTTAAAATTTTTGGAACTTTTAAATAGTAATTCATTCAAAGGATGTGATGAATAGGGATTTTTATATCTGAATAAAGATGTGTAAATTTATATTTGTCAAGTATGAAGGCTATTATAACTACGTTATATGTTAATGTGGCGGTATGTTGTTTGACTATATTTATAGTGTAATTCGATTATATAACAGTATGGATTTGTTATAGGTTTTAGCTTTTTTACTTAGGTAAAAGATACGATGCTAAAGATCGATTATATCTTCCCTTCTTTAATGCTATCAGCAATTCATAATACTAAGACAATATTTATTGAAATTAAGTTCAATACAAAATGGCGGAACCTCGATAATTTCTATTGTTAGTTCTGATGCTTAGTTTTTTGCTTATGGCTCAAGGTGAATATAAAAAGGATGTCTAACAGCCTCTCCATGCTCTTTATCCGTTAATTTAAGCTGTTACGTTTGTATGCTTCCGTAATGTATATAAGAGAAAGTAGTCTTTATGCGATTAAGAATGC (double strand) [pgaABCD promoter probe] | – | binds
